{"source": "paper PMC5613016", "about": "“GRL-09510, a Unique P2-Crown-Tetrahydrofuranylurethane -Containing HIV-1 Protease Inhibitor, Maintains Its Favorable Antiviral Activity against Highly-Drug-Resistant HIV-1 Variants in vitro” (Scientific Reports, 2017)", "tested_on": "HIV-1NL4-3", "test": "In vitro selection of resistant HIV-1 variants in MT-4 cells", "type": "cell-based", "details": "GRL-09510 selection", "source_text": "MT-4 cells (10^5/ml) were exposed to HIV-1NL4-3 (500 TCID50) and cultured in the presence of compounds at an initial concentration of its EC50 value. Viral replication was monitored by the determination of the amount of p24 produced by MT-4 cells. The supernatants were harvested on day 7 and were used to infect fresh MT-4 cells for the next round of culture in the presence of increasing concentrations of each compound. Proviral DNAs obtained from the lysates of infected cells were subjected to sequencing. This selection procedure was carried out until the drug concentration reached 5 μM as previously described[20]–[22]).", "data": [{"smiles": "COc1ccc(S(=O)(=O)N(CC(C)C)CC(O)C(Cc2ccccc2)NC(=O)OC2C3COC4OCC2C4C3)cc1", "note": "(stereo not shown) [GRL-09510]", "values": [{"measurement": "p24 concentration of selection culture supernatant, passage 8", "value": 564, "unit": "ng/mL"}, {"measurement": "p24 concentration of selection culture supernatant, passage 15", "value": 398, "unit": "ng/mL"}, {"measurement": "p24 concentration of selection culture supernatant, passage 28", "value": 268, "unit": "ng/mL"}, {"measurement": "p24 concentration of selection culture supernatant, passage 36", "value": 265, "unit": "ng/mL"}]}]}
